A mixed list of measured activities; the numbers were collected in NIAID ChemDB.

All rows: whole-cell or culture tests; organism: Hepatitis B virus; read-out: EC50

Rows are shuffled and stem from different studies. ECn is the concentration giving n% inhibition of infection, replication or growth. Two numbers with a dash give a range or band. An empty or dashed field is not shown.

compound	setting	read by	cells	result
C[C@H](NC(=O)c1c2n(c(=O)n1C)CCN(C(=O)c1ccccc1)C2)c1ccccc1	-	PCR	HepG2.117	>5 µM
CNC(=O)c1ccc(-n2c(=O)c3c(n4ncc(Cc5ccc(C#N)cc5F)c24)CN(C(=O)c2ccc(Br)c(C#N)c2)CC3)cc1	3 d	PCR	HepG2.117	0.5–5 µM
CNC(=O)c1cnc(-n2c(=O)c3c(n4ncc(Cc5ccccc5)c24)CN(C(=O)c2ccc(Br)c(C(F)(F)F)c2)[C@H](C)C3)cn1	-	luminescence	HepG2.117	≤0.05 µM
C[C@@H](c1cnc([C@]2(F)CN(C(=O)c3ccc(Br)c(C#N)c3)CCS2(=O)=O)s1)c1ccccc1F	-	PCR	HepG2.117	0.5–5 µM
C[C@H]1Cc2c(n3ncc(CC4CCC4)c3n(-c3ccc(-c4nncn4C)cc3)c2=O)CN1C(=O)c1ccc(Cl)c(C(F)(F)F)c1	-	luminescence	HepG2.117	0.5–5 µM
O=C(c1ccc(Br)c(Cl)c1)N1CCn2c(c3n(c2=O)C[C@@H](O)CN(Cc2ccccc2)C3=O)C1	-	PCR	HepG2.117	0.5–5 µM
Cn1cc(S(=O)(=O)N[C@@H]2CCN(C(=O)C(=O)NOCO)C2)c(F)c1C(=O)Nc1cc(F)c(F)c(F)c1	-	PCR	HepAD38 cells	<0.1 µM
O=C(NCc1ccccc1-c1cnccn1)c1c2n(c(=O)n1-c1ccc(OCC(F)(F)F)cc1)CCN(C(=O)c1ccc(Br)c(Cl)c1)C2	-	PCR	HepG2.117	<0.1 µM
C[C@H]1Cc2c(n3ncc(Cc4ccccc4)c3n(-c3ccc(-c4cnnn4C)cc3)c2=O)CN1C(=O)c1ccc(Br)c(C(F)(F)F)c1	-	luminescence	HepG2.117	0.05–0.5 µM
O=C(c1ccc(Br)c(Cl)c1)N1CCS(=O)(=O)C(c2nc(Cc3ccccc3)cs2)C1	-	PCR	HepG2.117	0.1–0.5 µM
CNC(=O)C(=O)N1CC[C@@H](NS(=O)(=O)c2cn(C)c(C(=O)Nc3ccc(F)c(C(F)F)c3)c2F)C1	-	PCR	HepAD38 cells	<0.1 µM
COc1ccc([C@@H](C)NC(=O)c2c3n(c(=O)n2-c2ccc(OC4CC4)cc2)C[C@H](C)N(C(=O)c2ccc(Br)c(Cl)c2)C3)cc1	-	PCR	HepG2.117	<0.1 µM
CC(C)Cc1cnn2c3c(c(=O)n(-c4ccc5c(c4)ncn5C)c12)C[C@@H](C)N(C(=O)c1ccc(Br)c(C(F)(F)F)c1)C3	-	luminescence	HepG2.117	≤0.05 µM
C[C@H](NC(=O)c1c2n(c(=O)n1-c1ccc(OC3CC3)cc1)CCN(C(=O)c1ccc(Br)c(Cl)c1)C2)c1ccc(OCC(N)=O)cc1F	-	PCR	HepG2.117	<0.1 µM
O=C(c1ccc(Br)c(Cl)c1)N1CCS(=O)(=O)[C@@](F)(c2ncc(Cc3ccccc3-c3ncccn3)s2)C1	-	PCR	HepG2.117	<0.1 µM
Cn1cc(S(=O)(=O)N[C@@H]2CCN(S(=O)(=O)/C=C/c3ccccc3)C2)c(F)c1C(=O)Nc1ccc(F)c(F)c1	-	PCR	HepAD38 cells	0.1–0.3 µM
COc1ccc(-n2c(C(=O)NCc3ccccc3)c3n(c2=O)CCN(C(=O)c2cc4c(C)cccc4[nH]2)C3)cc1	-	PCR	HepG2.117	0.5–5 µM
O=C(c1ccc(Br)c(Cl)c1)N1CCc2c(n3nccc3n(-c3ccccc3)c2=O)C1	3 d	PCR	HepG2.117	0.5–5 µM
CC1(c2nccs2)CN(C(=O)c2ccc(Br)c(Cl)c2)CCS1(=O)=O	-	PCR	HepG2.117	0.5–5 µM
COc1ccc(-n2c(=O)c3c(n4ncc(NS(=O)(=O)c5ccccc5)c24)CN(C(=O)c2ccc(Br)c(Cl)c2)CC3)cc1	3 d	PCR	HepG2.117	<0.1 µM
CNC(=O)c1ccc(-n2c(=O)c3c(n4ncc(CC5CCC5)c24)CN(C(=O)c2ccc(Br)c(Cl)c2)CC3)cc1	-	luminescence	HepG2.117	≤0.05 µM
Nc1ccn([C@@H]2CS[C@H](CO)O2)c(=O)n1	-	-	HepAD38	0.03 µM
CCC[C@@H]1Cc2c(n3ncc(Cc4ccccc4)c3n(-c3ccc4c(NC)n[nH]c4c3)c2=O)CN1C(=O)c1ccc(Br)c(C(F)(F)F)c1	-	luminescence	HepG2.117	≤0.05 µM
CCNC(=O)C(=O)N1CCC(NS(=O)(=O)c2c(F)c(C(=O)Nc3cc(F)c(F)c(F)c3)n(C)c2Br)CC1	-	PCR	HepAD38 cells	<0.1 µM
CC(C)Cc1cnn2c3c(c(=O)n(-c4ccc(-c5nc(=O)on5C)cc4)c12)C[C@H](C)N(C(=O)c1ccc(Br)c(C(F)(F)F)c1)C3	-	luminescence	HepG2.117	0.05–0.5 µM
O=C(NCc1ccccc1)c1c2n(c(=O)n1-c1ccc(N3CCC3=O)cc1)CCN(C(=O)c1ccc(Br)c(Cl)c1)C2	-	PCR	HepG2.117	0.5–5 µM
Cc1n[nH]nc1-c1ccc(-n2c(=O)c3c(n4ncc(Cc5ccccc5)c24)CN(C(=O)c2ccc(Br)c(C(F)(F)F)c2)[C@@H](C)C3)cc1	-	luminescence	HepG2.117	0.05–0.5 µM
CNC(=O)c1ccc(-n2c(=O)c3c(n4ncc([C@H](C)c5ccccc5)c24)CN(C(=O)c2ccc(Br)c(C#N)c2)CC3)cc1	3 d	PCR	HepG2.117	<0.1 µM
O=C(NCc1ccccc1)c1c2n(c(=O)n1-c1ccc(OCC(F)F)cc1)CCN(C(=O)c1ccc(Br)c(Cl)c1)C2	-	PCR	HepG2.117	0.5–5 µM
Cc1ccn(-c2ccc(-n3c(=O)c4c(n5ncc(CC(C)C)c35)CN(C(=O)c3ccc(Br)c(C(F)(F)F)c3)[C@H](C)C4)cc2)n1	-	luminescence	HepG2.117	≤0.05 µM